Data as given in PubChem BioAssay AID504761 (Drosophila RNAi Screening Center, 2011).
Assay: 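Genome-wide fly cell screen for genes dengue virus requires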 (primary screen). System: D.Mel-2 cells from Drosophila. Reagent: long dsRNA against Drosophila genes. Challenge: infection with dengue virus type 2; dose and infection time not stated. Measurement: 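Per well on two replicate plates, imaging gave the percent of cells positive for viral envelope protein, ranked by infection, and a nuclear count of cells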. Reading the numbers: infection score: higher = more virus-infected cells; cell count: higher = more cells in the well. Call rule: 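Very low infection ranking in both replicate wells (chance probability at most 0.065), then a retest showing infection dropped 1.5-fold or more at p below 0.05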. Calls: active = confirmed: knock-down lowers infection; inactive = not picked or not confirmed.
The deposit covers about 22,000 reagents; below is a random part of those that have a named target and a result. Of all reagents, 116 (0.52%) are marked active. 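Calls depend on retest data that are not deposited; infection was ranked per plate without normalising between plates; the unit of the infection score is not given.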 Raw values are not corrected between plates. The numbers tell different reagents against one gene apart. Not all columns of the deposit are shown. Not stated in the record: the amount of reagent, the time to read-out.

What did the screen give for Buffy (GeneID 36251)?
infection score, replicate 1: 5.76; cell count, replicate 1: 6633; Outcome: inactive

Which result is listed for GNBP3 (GeneID 39020)?
infection score, replicate 1: 1.3; cell count, replicate 1: 6408; Outcome: inactive

What is on record for Sf3b2 (GeneID 33514)?
infection score, replicate 1: 13.1; cell count, replicate 1: 1432; Outcome: inactive

For RpL30 (GeneID 44059), what does the deposit list?
infection score, replicate 1: 6.37; cell count, replicate 1: 6075; Outcome: inactive

What did the screen give for Sgt (GeneID 35052) #1?
infection score, replicate 1: 11.1; cell count, replicate 1: 6372; Outcome: inactive

With Sgt (GeneID 35052) #2, how do the results read?
infection score, replicate 1: 5.04; cell count, replicate 1: 6037; Outcome: inactive

What did the screen give for WDR79 (GeneID 33865)?
infection score, replicate 1: 1.4; cell count, replicate 1: 5933; Outcome: inactive

For lms (GeneID 37322) #1, how do the results read?
infection score, replicate 1: 2.06; cell count, replicate 1: 6120; Outcome: inactive

With lms (GeneID 37322) #2, what was measured?
infection score, replicate 1: 2.51; cell count, replicate 1: 6932; Outcome: inactive

With CG1233 (GeneID 38063) #1, how do the results read?
infection score, replicate 1: 8.49; cell count, replicate 1: 6246; Outcome: inactive

Which result is listed for CG1233 (GeneID 38063) #2?
infection score, replicate 1: 16.5; cell count, replicate 1: 5613; Outcome: inactive

For L2HGDH (GeneID 35156) #1, what was measured?
infection score, replicate 1: 9.59; cell count, replicate 1: 6446; Outcome: inactive

For L2HGDH (GeneID 35156) #2, how do the results read?
infection score, replicate 1: 1.27; cell count, replicate 1: 6198; Outcome: inactive

With P5cr (GeneID 42284), what was measured?
infection score, replicate 1: 6.09; cell count, replicate 1: 5979; Outcome: inactive
